Laboratory results published in paper PMC6222493, “NMR Structure of μ-Conotoxin GIIIC: Leucine 18 Induces Local Repacking of the N-Terminus Resulting in Reduced NaV Channel Potency” (2018).

The chains behind the UniProt entries cited, without tags or fusion partners.
UniProt P15390, whole entry, looked up: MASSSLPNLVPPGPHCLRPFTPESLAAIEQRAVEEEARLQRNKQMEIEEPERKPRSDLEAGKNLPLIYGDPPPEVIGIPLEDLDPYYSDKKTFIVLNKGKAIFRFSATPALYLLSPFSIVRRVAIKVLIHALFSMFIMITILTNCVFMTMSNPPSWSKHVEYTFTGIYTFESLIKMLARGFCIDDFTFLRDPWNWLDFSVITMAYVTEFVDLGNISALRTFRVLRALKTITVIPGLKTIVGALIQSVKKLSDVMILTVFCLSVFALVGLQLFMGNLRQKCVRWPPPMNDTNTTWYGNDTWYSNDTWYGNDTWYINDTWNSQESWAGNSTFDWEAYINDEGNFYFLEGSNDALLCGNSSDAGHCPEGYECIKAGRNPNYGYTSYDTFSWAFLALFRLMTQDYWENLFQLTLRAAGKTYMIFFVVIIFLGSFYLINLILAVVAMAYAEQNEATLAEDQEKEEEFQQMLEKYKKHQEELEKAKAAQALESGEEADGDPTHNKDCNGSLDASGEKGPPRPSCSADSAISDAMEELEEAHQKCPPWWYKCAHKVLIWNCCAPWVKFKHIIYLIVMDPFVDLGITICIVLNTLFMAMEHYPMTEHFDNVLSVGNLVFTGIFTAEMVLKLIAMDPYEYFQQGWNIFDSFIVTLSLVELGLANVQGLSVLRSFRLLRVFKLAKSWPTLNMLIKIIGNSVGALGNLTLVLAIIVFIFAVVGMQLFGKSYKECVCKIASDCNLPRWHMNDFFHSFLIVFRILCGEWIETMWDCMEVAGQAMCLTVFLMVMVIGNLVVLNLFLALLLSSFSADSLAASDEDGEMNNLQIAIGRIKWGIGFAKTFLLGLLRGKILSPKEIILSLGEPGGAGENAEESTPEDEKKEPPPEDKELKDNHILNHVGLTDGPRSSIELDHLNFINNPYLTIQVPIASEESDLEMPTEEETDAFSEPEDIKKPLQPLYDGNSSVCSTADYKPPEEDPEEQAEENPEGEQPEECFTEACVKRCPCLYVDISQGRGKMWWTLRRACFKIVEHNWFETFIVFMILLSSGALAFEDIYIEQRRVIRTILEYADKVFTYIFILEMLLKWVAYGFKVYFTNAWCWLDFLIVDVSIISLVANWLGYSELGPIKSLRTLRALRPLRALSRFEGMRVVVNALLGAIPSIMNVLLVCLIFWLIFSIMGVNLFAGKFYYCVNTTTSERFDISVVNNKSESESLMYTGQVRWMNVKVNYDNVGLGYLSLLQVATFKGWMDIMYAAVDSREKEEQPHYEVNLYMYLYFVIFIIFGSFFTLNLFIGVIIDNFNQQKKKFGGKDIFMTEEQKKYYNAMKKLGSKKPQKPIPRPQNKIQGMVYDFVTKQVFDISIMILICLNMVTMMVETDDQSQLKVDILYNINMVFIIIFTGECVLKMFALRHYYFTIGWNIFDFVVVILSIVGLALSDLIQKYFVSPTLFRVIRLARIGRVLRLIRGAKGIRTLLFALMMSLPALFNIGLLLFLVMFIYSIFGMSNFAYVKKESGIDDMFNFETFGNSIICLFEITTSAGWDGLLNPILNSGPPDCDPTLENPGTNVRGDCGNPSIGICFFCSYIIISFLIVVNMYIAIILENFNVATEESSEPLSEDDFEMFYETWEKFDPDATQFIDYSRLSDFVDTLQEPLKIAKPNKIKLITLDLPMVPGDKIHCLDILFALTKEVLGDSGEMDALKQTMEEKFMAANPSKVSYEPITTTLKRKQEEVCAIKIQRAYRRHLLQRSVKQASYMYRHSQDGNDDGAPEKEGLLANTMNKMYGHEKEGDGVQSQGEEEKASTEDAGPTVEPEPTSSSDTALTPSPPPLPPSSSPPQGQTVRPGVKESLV

How the values were obtained:
rNaV1.4 = rNaV1.4 (Rattus norvegicus, UniProt P15390); experiment: whole-cell patch clamp, inhibition of rNaV1.4 Na+ currents; conditions: for NaV1.4 current remaining (not inhibited): 1 µM peptide, TSA201 cells, mean ± SEM, n = 7 (GIIIC), n = 4 (GIIIA); for IC50: read-out: IC50, inhibition of rNaV1.4-mediated Na+ currents, TSA201 cells transiently transfected, room temperature, Vh −120 mV, step to −10 mV, mean ± SEM, n = 6 (GIIIC), n = 5 (GIIIA)
[1] = tested on: NaV1.2, NaV1.4, NaV1.5, NaV1.6, NaV1.7 and NaV1.8; experiment: NaV selectivity profile over the panel of VGSCs

Row | Compound | NaV1.4 current remaining (not inhibited) (rNaV1.4) | IC50 (rNaV1.4) | NaV selectivity (in words) ([1]; selectivity towards skeletal muscle sodium channels, panel at 1 µM) | NaV selectivity profile compared to GIIIA (in words) ([1]; when compared to GIIIA)
1 | C[C@H](NC(=O)[C@@H]1CSSC[C@@H]2NC(=O)[C@H](CCCCN)NC(=O)[C@H](CCCCN)NC(=O)[C@@H]3C[C@@H](O)CN3C(=O)[C@@H]3C[C@@H](O)CN3C(=O)[C@H]([C@@H](C)O)NC(=O)[C@@H]3CSSC[C@H](NC(=O)[C@H](CCCNC(=N)N)NC(=O)[C@H](CCC(N)=O)NC(=O)[C@@H]4C[C@@H](O)CN4C(=O)[C@H](CCCCN)NC(=O)[C@H](CSSC[C@H](NC(=O)[C@H](CC(=O)O)NC(=O)[C@@H](N)CCCNC(=N)N)C(=O)N3)NC(=O)[C@H](CCC(N)=O)NC(=O)[C@H](CCCNC(=N)N)NC(=O)[C@H](CC(=O)O)NC(=O)[C@H](CCCCN)NC2=O)C(=O)N1)C(N)=O | 5 ± 3% | 110 nM | – | –
2 | CC(C)C[C@@H]1NC(=O)[C@@H]2C[C@@H](O)CN2C(=O)[C@H](CCCCN)NC(=O)[C@@H]2CSSC[C@H](NC(=O)[C@H](CC(=O)O)NC(=O)[C@@H](N)CCCNC(=N)N)C(=O)N[C@H]3CSSC[C@H](NC(=O)[C@H](CCCCN)NC1=O)C(=O)N[C@H](C(=O)N[C@@H](C)C(N)=O)CSSC[C@H](NC(=O)[C@H](CCCCN)NC(=O)[C@H](CCCCN)NC(=O)[C@@H]1C[C@@H](O)CN1C(=O)[C@@H]1C[C@@H](O)CN1C(=O)[C@H]([C@@H](C)O)NC3=O)C(=O)N[C@@H](CCCCN)C(=O)N[C@@H](CC(=O)O)C(=O)N[C@@H](CCCNC(=N)N)C(=O)N[C@@H](CCCNC(=N)N)C(=O)N2 | 18 ± 2% | 286 nM | substantial selectivity towards skeletal muscle sodium channels | same NaV selectivity profile
